In PubChem BioAssay (NCATS):
The list shows a part of the results, in another mix than the full data. Inconclusive results are not listed. Active and inactive are the calls of the source. The call rests on the fitted dose curve; in most records, active means well fitted inhibition curve with a large enough effect; inconclusive means small, poorly fitted or top-dose-only effect; inactive means flat fitted curve, though single readings scatter.

Experiments:
Test in all cases: qHTS profiling for inhibitors of Plasmodium falciparum proliferation (AID 504749);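 further: 0% = DMSO vehicle and full inhibition = artemisinin control; nearly all actives have a fitted effect of over 60% in size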
Conditions in all cases: P. falciparum in erythrocytes, SYBR Green DNA, 72 h; at 28.7 µM (top of the series)
[1] = system: CP286
Summary of the method: (§1)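 Three-day growth assay of blood-stage parasites in erythrocytes (0.3% parasitemia, 2.5% hematocrit) at 37 C, 5% CO2, quantified by SYBR Green DNA staining after overnight detergent lysis.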

[2] = system: CP291
Summary of the method: as §1

[3] = system: CP297
Summary of the method: as §1

[4] = system: CP305
Summary of the method: as §1

[5] = system: CP315
Summary of the method: as §1

[6] = system: CP325
Summary of the method: as §1

[7] = system: CP329
Summary of the method: as §1

[8] = system: CP335
Summary of the method: as §1

[9] = system: DFO2036
Summary of the method: as §1

[10] = system: DIV14
Summary of the method: as §1

[11] = system: DIV17
Summary of the method: as §1

[12] = system: DIV30
Summary of the method: as §1

[13] = system: Dd2
Summary of the method: as §1

[14] = system: ECU
Summary of the method: as §1

[15] = system: FAB9
Summary of the method: as §1

[16] = system: GB4
Summary of the method: as §1

[17] = system: HB3
Summary of the method: as §1

[18] = system: ICS
Summary of the method: as §1

[19] = system: JCK
Summary of the method: as §1

[20] = system: N140
Summary of the method: as §1

[21] = system: P93_24
Summary of the method: as §1

[22] = system: P94_40
Summary of the method: as §1

[23] = system: PAD
Summary of the method: as §1

[24] = system: PC15
Summary of the method: as §1

[25] = system: PC26
Summary of the method: as §1

[26] = system: PC49
Summary of the method: as §1

[27] = system: SC27B
Summary of the method: as §1

[28] = system: TAB109
Summary of the method: as §1

[29] = system: TAB113
Summary of the method: as §1

[30] = system: TAB165
Summary of the method: as §1

[31] = system: W2
Summary of the method: as §1

Measured: activity, negative = inhibition

O=C(OC1CN2CCC1CC2)c1ccccc1 (stereo unspecified)
inactive: [1] 0.948% | [2] -0.505% | [3] -1.89% | [4] -8.6% | [5] -5.55% | [6] 9.51% | [7] -0.4% | [8] 2.51% | [9] -9.78% | [10] -27.2% | [11] -20.2% | [12] -4.63% | [13] -9.15% | [14] -5.55% | [15] -0.0515% | [16] -14.1% | [17] -12% | [18] -3.29% | [19] -8.57% | [20] 4.86% | [21] -1.29% | [22] -1.56% | [23] -1.07% | [24] -5.69% | [25] -2.13% | [26] -7.61% | [27] 2.44% | [28] -12.4% | [29] 11.1% | [30] 0.462% | [31] 0.282%
